Reference: article PMC8865458

Tested on: His-NrtR (Pseudomonas aeruginosa PAK)
Experiment: EMSA
Conditions: 0, 4, 8 uM NrtR, 40 ng DNA; 10 mM Tris, 1 mM DTT, pH 7.5, […]; recombinant protein; residues 1-231; protein details: N-terminal His (pET28a); probe letters rebuilt from the primers and the genome

“TGCTACTCCTTGCATTGCCAGCGCCCGGCTCTTCCAGGCGCTCACCCCCGTGCCCGAGGGATTTCGGTTCGCATCCAGGCTGGCCCGACGGCTTTCCGGCGTTTCGTCGCCTCGGGAAGACACATCGGGTGGTACCGGATTATAAAAGACTAATCCTACGTCTTTTAAAGATTTGTCCGATCTGCGGTGTCATGCAACTAGTGGCGTTGTGCCTTCCTTGACAAGCCTTGCGGCATGCCACAAGAATTTTGCCAACCTTTCGAGTCATCCGATATTCATCAATGGCTCCTACAAGATCCGACGGAGTGGATCTTACAAGCGAAGGTGAGGGCCGCGCAGCGGCTTCGATGATAGGGAGATCGTCACC (double strand) [tssA1 promoter fragment]”: binds.
